# Test system: HIV-1NL4-3 pseudovirus
# Format: cell-based
# Settings: HIV-1NL4-3(D36G) pseudovirus entry, TZM-bl cells; triplicate, repeated three times, mean ± SD; SD; read-out: Inhibition (IC50, nM) NL4-3 entry
row,SMILES,IC50 [nM]
1,CC[C@H](C)[C@H](NC(=O)[C@H](CC(C)C)NC(=O)[C@H](CCC(=O)O)NC(=O)[C@H](CCC(=O)O)NC(=O)[C@@H](NC(=O)[C@H](CCCCN)NC(=O)[C@H](CCCCN)NC(=O)[C@@H](NC(=O)[C@H](Cc1ccc(O)cc1)NC(=O)[C@H](CCC(=O)O)NC(=O)[C@H](CCC(=O)O)NC(=O)[C@@H](NC(=O)[C@H](CCCCN)NC(=O)[C@H](CCCCN)NC(=O)[C@H](CC(=O)O)NC(=O)[C@H](Cc1c[nH]c2ccccc12)NC(=O)[C@H](CCC(=O)O)NC(=O)[C@H](CCC(=O)O)NC(=O)[C@H](Cc1c[nH]c2ccccc12)NC(C)=O)[C@@H](C)CC)[C@@H](C)O)[C@@H](C)CC)C(=O)N[C@@H](CCCCN)C(=O)N[C@@H](CCCCN)C(=O)N[C@@H](CO)C(=O)N[C@@H](CCC(=O)O)C(=O)N[C@@H](CCC(=O)O)C(=O)N[C@@H](CCC(N)=O)C(=O)N[C@@H](CCC(N)=O)C(=O)N[C@@H](CCCCN)C(=O)N[C@@H](CCCCN)C(=O)N[C@@H](CC(N)=O)C(=O)N[C@@H](CCC(=O)O)C(=O)N[C@@H](CCCCN)C(=O)N[C@@H](CCC(=O)O)C(N)=O [SC32EK],1.1 ± 0.2
2,CC[C@H](C)[C@H](NC(=O)[C@H](CC(C)C)NC(=O)[C@H](CCC(=O)O)NC(=O)[C@H](CCC(=O)O)NC(=O)[C@@H](NC(=O)[C@H](CCCCN)NC(=O)[C@H](CCCCN)NC(=O)[C@@H](NC(=O)[C@H](Cc1ccc(O)cc1)NC(=O)[C@H](CCC(=O)O)NC(=O)[C@H](CCC(=O)O)NC(=O)[C@@H](NC(=O)[C@H](CCCCN)NC(=O)[C@H](CCCCN)NC(=O)[C@H](CC(=O)O)NC(=O)[C@H](Cc1c[nH]c2ccccc12)NC(=O)[C@H](CCC(=O)O)NC(=O)[C@H](CCC(=O)O)NC(=O)[C@H](Cc1c[nH]c2ccccc12)NC(C)=O)[C@@H](C)CC)[C@@H](C)O)[C@@H](C)CC)C(=O)N[C@@H](CCCCN)C(=O)N[C@@H](CCCCN)C(N)=O [SC21EK],113 ± 8
3,CC[C@H](C)[C@H](NC(=O)[C@H](CC(C)C)NC(=O)[C@H](CCC(=O)O)NC(=O)[C@H](CCC(=O)O)NC(=O)[C@@H](NC(=O)[C@H](CCCCN)NC(=O)[C@H](CCCCN)NC(=O)[C@@H](NC(=O)[C@H](Cc1ccc(O)cc1)NC(=O)[C@H](CCC(=O)O)NC(=O)[C@H](CCC(=O)O)NC(=O)[C@@H](NC(=O)[C@H](CCCCN)NC(=O)[C@H](CCCCN)NC(=O)[C@H](CC(=O)O)NC(=O)[C@H](Cc1c[nH]c2ccccc12)NC(=O)[C@H](CCC(=O)O)NC(=O)[C@H](CCC(=O)O)NC(=O)[C@H](Cc1c[nH]c2ccccc12)NC(=O)[C@@H](NC(=O)[C@H](CCSC)NC(C)=O)[C@@H](C)O)[C@@H](C)CC)[C@@H](C)O)[C@@H](C)CC)C(=O)N[C@@H](CCCCN)C(=O)N[C@@H](CCCCN)C(=O)N[C@@H](CO)C(=O)N[C@@H](CCC(=O)O)C(=O)N[C@@H](CCC(=O)O)C(=O)N[C@@H](CCC(N)=O)C(=O)N[C@@H](CCC(N)=O)C(=O)N[C@@H](CCCCN)C(=O)N[C@@H](CCCCN)C(=O)N[C@@H](CC(N)=O)C(=O)N[C@@H](CCC(=O)O)C(=O)N[C@@H](CCCCN)C(=O)N[C@@H](CCC(=O)O)C(N)=O [MT-SC32EK],1.3 ± 0.1
4,CC[C@H](C)[C@H](NC(=O)[C@H](CC(C)C)NC(=O)[C@H](CCC(=O)O)NC(=O)[C@H](CCC(=O)O)NC(=O)[C@@H](NC(=O)[C@H](CCCCN)NC(=O)[C@H](CCCCN)NC(=O)[C@@H](NC(=O)[C@H](Cc1ccc(O)cc1)NC(=O)[C@H](CCC(=O)O)NC(=O)[C@H](CCC(=O)O)NC(=O)[C@@H](NC(=O)[C@H](CCCCN)NC(=O)[C@H](CCCCN)NC(=O)[C@H](CC(=O)O)NC(=O)[C@H](Cc1c[nH]c2ccccc12)NC(=O)[C@H](CCC(=O)O)NC(=O)[C@H](CCC(=O)O)NC(=O)[C@H](Cc1c[nH]c2ccccc12)NC(C)=O)[C@@H](C)CC)[C@@H](C)O)[C@@H](C)CC)C(=O)N[C@@H](CCCCN)C(=O)N[C@@H](CCCCN)C(=O)N[C@@H](CO)C(=O)N[C@@H](CCC(=O)O)C(=O)N[C@@H](CCC(=O)O)C(=O)N[C@@H](CCC(N)=O)C(=O)N[C@@H](CCC(N)=O)C(=O)N[C@@H](CCCCN)C(N)=O [SC27EK],29 ± 2.1
5,CC[C@H](C)[C@H](NC(=O)[C@H](CC(C)C)NC(=O)[C@H](CCC(=O)O)NC(=O)[C@H](CCC(=O)O)NC(=O)[C@@H](NC(=O)[C@H](CCCCN)NC(=O)[C@H](CCCCN)NC(=O)[C@@H](NC(=O)[C@H](Cc1ccc(O)cc1)NC(=O)[C@H](CCC(=O)O)NC(=O)[C@H](CCC(=O)O)NC(=O)[C@@H](NC(=O)[C@H](CCCCN)NC(=O)[C@H](CCCCN)NC(=O)[C@H](CC(=O)O)NC(=O)[C@H](Cc1c[nH]c2ccccc12)NC(=O)[C@H](CCC(=O)O)NC(=O)[C@H](CCC(=O)O)NC(=O)[C@H](Cc1c[nH]c2ccccc12)NC(=O)[C@@H](NC(=O)[C@H](CCSC)NC(C)=O)[C@@H](C)O)[C@@H](C)CC)[C@@H](C)O)[C@@H](C)CC)C(=O)N[C@@H](CCCCN)C(=O)N[C@@H](CCCCN)C(=O)N[C@@H](CO)C(=O)N[C@@H](CCC(=O)O)C(=O)N[C@@H](CCC(=O)O)C(=O)N[C@@H](CCC(N)=O)C(=O)N[C@@H](CCC(N)=O)C(=O)N[C@@H](CCCCN)C(=O)N[C@@H](CCCCN)C(=O)N[C@@H](CC(N)=O)C(=O)N[C@@H](CCC(=O)O)C(N)=O [MT-SC30EK],0.8 ± 0.1
6,CC[C@H](C)[C@H](NC(=O)[C@H](CC(C)C)NC(=O)[C@H](CCC(=O)O)NC(=O)[C@H](CCC(=O)O)NC(=O)[C@@H](NC(=O)[C@H](CCCCN)NC(=O)[C@H](CCCCN)NC(=O)[C@@H](NC(=O)[C@H](Cc1ccc(O)cc1)NC(=O)[C@H](CCC(=O)O)NC(=O)[C@H](CCC(=O)O)NC(=O)[C@@H](NC(=O)[C@H](CCCCN)NC(=O)[C@H](CCCCN)NC(=O)[C@H](CC(=O)O)NC(=O)[C@H](Cc1c[nH]c2ccccc12)NC(=O)[C@H](CCC(=O)O)NC(=O)[C@H](CCC(=O)O)NC(=O)[C@H](Cc1c[nH]c2ccccc12)NC(C)=O)[C@@H](C)CC)[C@@H](C)O)[C@@H](C)CC)C(=O)N[C@@H](CCCCN)C(=O)N[C@@H](CCCCN)C(=O)N[C@@H](CO)C(=O)N[C@@H](CCC(=O)O)C(N)=O [SC23EK],105 ± 15.3
7,CC[C@H](C)[C@H](NC(=O)[C@H](CC(C)C)NC(=O)[C@H](CCC(=O)O)NC(=O)[C@H](CCC(=O)O)NC(=O)[C@@H](NC(=O)[C@H](CCCCN)NC(=O)[C@H](CCCCN)NC(=O)[C@@H](NC(=O)[C@H](Cc1ccc(O)cc1)NC(=O)[C@H](CCC(=O)O)NC(=O)[C@H](CCC(=O)O)NC(=O)[C@@H](NC(=O)[C@H](CCCCN)NC(=O)[C@H](CCCCN)NC(=O)[C@H](CC(=O)O)NC(=O)[C@H](Cc1c[nH]c2ccccc12)NC(=O)[C@H](CCC(=O)O)NC(=O)[C@H](CCC(=O)O)NC(=O)[C@H](Cc1c[nH]c2ccccc12)NC(=O)[C@@H](NC(=O)[C@H](CCSC)NC(C)=O)[C@@H](C)O)[C@@H](C)CC)[C@@H](C)O)[C@@H](C)CC)C(=O)N[C@@H](CCCCN)C(=O)N[C@@H](CCCCN)C(=O)N[C@@H](CO)C(=O)N[C@@H](CCC(=O)O)C(=O)N[C@@H](CCC(=O)O)C(=O)N[C@@H](CCC(N)=O)C(=O)N[C@@H](CCC(N)=O)C(=O)N[C@@H](CCCCN)C(=O)N[C@@H](CCCCN)C(=O)N[C@@H](CC(N)=O)C(N)=O [MT-SC29EK],0.9 ± 0.2
8,CC[C@H](C)[C@H](NC(=O)[C@H](CC(C)C)NC(=O)[C@H](CCC(=O)O)NC(=O)[C@H](CCC(=O)O)NC(=O)[C@@H](NC(=O)[C@H](CCCCN)NC(=O)[C@H](CCCCN)NC(=O)[C@@H](NC(=O)[C@H](Cc1ccc(O)cc1)NC(=O)[C@H](CCC(=O)O)NC(=O)[C@H](CCC(=O)O)NC(=O)[C@@H](NC(=O)[C@H](CCCCN)NC(=O)[C@H](CCCCN)NC(=O)[C@H](CC(=O)O)NC(=O)[C@H](Cc1c[nH]c2ccccc12)NC(=O)[C@H](CCC(=O)O)NC(=O)[C@H](CCC(=O)O)NC(=O)[C@H](Cc1c[nH]c2ccccc12)NC(=O)[C@@H](NC(=O)[C@H](CCSC)NC(C)=O)[C@@H](C)O)[C@@H](C)CC)[C@@H](C)O)[C@@H](C)CC)C(=O)N[C@@H](CCCCN)C(=O)N[C@@H](CCCCN)C(=O)N[C@@H](CO)C(=O)N[C@@H](CCC(=O)O)C(=O)N[C@@H](CCC(=O)O)C(=O)N[C@@H](CCC(N)=O)C(=O)N[C@@H](CCC(N)=O)C(=O)N[C@@H](CCCCN)C(=O)N[C@@H](CCCCN)C(N)=O [MT-SC28EK],1.3 ± 0.2

# Same assay, conditions: HIV-1NL4-3(D36G) pseudovirus entry, TZM-bl cells; triplicate, repeated three times, mean ± SD; read-out: Inhibition (IC50, nM) NL4-3 entry
row,SMILES,IC50 [nM]
1,CC[C@H](C)[C@H](NC(=O)[C@H](CC(C)C)NC(=O)[C@H](CCC(=O)O)NC(=O)[C@H](CCC(=O)O)NC(=O)[C@@H](NC(=O)[C@H](CCCCN)NC(=O)[C@H](CCCCN)NC(=O)[C@@H](NC(=O)[C@H](Cc1ccc(O)cc1)NC(=O)[C@H](CCC(=O)O)NC(=O)[C@H](CCC(=O)O)NC(=O)[C@@H](NC(=O)[C@H](CCCCN)NC(=O)[C@H](CCCCN)NC(=O)[C@H](CC(=O)O)NC(=O)[C@H](Cc1c[nH]c2ccccc12)NC(=O)[C@H](CCC(=O)O)NC(=O)[C@H](CCC(=O)O)NC(=O)[C@H](Cc1c[nH]c2ccccc12)NC(C)=O)[C@@H](C)CC)[C@@H](C)O)[C@@H](C)CC)C(=O)N[C@@H](CCCCN)C(=O)N[C@@H](CCCCN)C(=O)N[C@@H](CO)C(=O)N[C@@H](CCC(=O)O)C(=O)N[C@@H](CCC(=O)O)C(=O)N[C@@H](CCC(N)=O)C(=O)N[C@@H](CCC(N)=O)C(=O)N[C@@H](CCCCN)C(=O)N[C@@H](CCCCN)C(N)=O [SC28EK],18
